Results deposited as PubChem BioAssay AID1259414 (Drosophila RNAi Screening Center, 2018)
The deposit covers about 24,000 reagents; shown is an unselected part of those with a known target gene and a result. Of all reagents, about 1,210 (5%) were called active. 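Inactive calls also include excluded dsRNAs with several or no targets, genes unexpressed in JW18, and well A1, regardless of score.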 A number with no mark means an inactive call. A plus sign joins genes that one reagent is predicted to hit.

Purpose: 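Host factors increasing or decreasing Wolbachia levels in cultured fly cells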 (primary screen)
System: Drosophila JW18 cells infected with Wolbachia
Reagents: long dsRNA against Drosophila genes, 0.25 µg dsRNA per well of a 384-well plate
Duration: 5 days
Treatment: cells persistently infected with Wolbachia before knock-down; no added drug
Measured: 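Imaged fluorescence in situ signal for Wolbachia 23S rRNA per DAPI-counted host cell, given as a robust z-score within each plate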
Reading the numbers: Wolbachia per cell robust z: higher = more Wolbachia per host cell than the plate typical
Hit rule: 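Active if absolute robust z reaches 1.5 in two or more of three replicates, leaving out multi- or no-target dsRNAs, genes unexpressed in JW18 and A1 wells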

| Target gene | DRSC id | Wolbachia per cell robust z, rep 1 | Wolbachia per cell robust z, rep 2 | Wolbachia per cell robust z, rep 3 |
| --- | --- | --- | --- | --- |
| CG32486 | DRSC08413 | -0.397 | 1.04 | 1.28 |
| CG32486 | DRSC08488 | -0.53 | -0.91 | 0.307 |
| Obp46a | DRSC06220 | -0.25 | -4.01 | 0.222 |
| ItgaPS5 | DRSC04501 | -1.82 | 0.893 | -0.116 |
| ItgaPS5 | DRSC28842 | 1.58 (active) | 1.15 | 1.54 |
| schlank | DRSC18102 | 0.296 | 0.747 | 0.102 |
| schlank | DRSC18313 | -0.0882 | 1.46 | -0.551 |
| CG6118 | DRSC23197 | 0.356 | 0.551 | 0.658 |
| CG6118 | DRSC29922 | 0.757 | -0.795 | 0.22 |
| Prosbeta5R1 | DRSC04581 | -0.177 | -4.02 | 0.424 |
| Prosbeta5R1 | DRSC29901 | 0.323 | 0.833 | -0.144 |
| CG9855 | DRSC12344 | 0.42 | 1.74 | 1.13 |
| CG9855 | DRSC25547 | 0.702 | -0.0985 | -0.498 |
| CG9855 | DRSC39062 | 0.356 | -4.27 | -0.489 |
| CG44837 | DRSC10130 | 0.781 | 0.398 | -0.342 |
| CG44837 | DRSC10133 | 0.273 | 0.352 | 0.858 |
| CG44837 | DRSC10558 | 0.512 | -0.487 | 1.22 |
| CG44837 | DRSC25062 | 1.13 | 0.239 | 1.38 |
| CG44837 | DRSC28859 | -0.245 | 0.229 | 0.323 |
| CG2021 | DRSC08546 | -0.149 | -0.105 | 0.503 |
| CG2021 | DRSC27282 | -1.28 | -0.369 | -1.06 |
| Cpr47Ef | DRSC06336 | 1.25 | -2.63 | -0.18 |
| Cpr47Ef | DRSC22450 | -1.69 | 0.314 | -0.573 |
| Cpr47Ef | DRSC25090 | -0.936 | 0.152 | -0.126 |
| Cpr47Ef | DRSC25665 | 0.836 | -0.0758 | -1.52 |
| Ank | DRSC17127 | -1.57 | 0.862 | -0.917 |
| Ank | DRSC29865 | -0.705 | -0.492 | -2.45 |
| Gmppb | DRSC12169 | 0.463 | -2.83 | 0.56 |
| mbc | DRSC16995 | 0.927 | 0.48 | -0.295 |
| Obp47a | DRSC06255 | 0.539 | -0.0105 | 0.902 |
| Obp47a | DRSC26247 | 0.425 | -0.112 | -0.746 |
| CG31855 | DRSC02968 | -0.39 | 0.883 | -4.72 |
| CG31855 | DRSC25858 | -0.327 | -0.436 | -2 |
| Nepl7 | DRSC02495 | 0.856 | 0.467 | 1.01 |
| Nepl7 | DRSC27685 | 0.964 | 0.295 | 0.0897 |

As entered above:
For “Wolbachia per cell robust z, rep 3”, CG32486 [DRSC08413] shows 1.28
Under “Wolbachia per cell robust z, rep 1”, CG31855 [DRSC02968] has -0.39
For “Wolbachia per cell robust z, rep 2”, Cpr47Ef [DRSC06336] shows -2.63
Ank [DRSC29865], Wolbachia per cell robust z, rep 1 = -0.705
For “Wolbachia per cell robust z, rep 2”, CG32486 [DRSC08488] has -0.91
CG44837 [DRSC25062], Wolbachia per cell robust z, rep 1: 1.13

The results go on:
| Target gene | DRSC id | Wolbachia per cell robust z, rep 1 | Wolbachia per cell robust z, rep 2 | Wolbachia per cell robust z, rep 3 |
| --- | --- | --- | --- | --- |
| CG13002 | DRSC19521 | -0.372 | -0.673 | 0.518 |
| CG13002 | DRSC29478 | 0.0349 | 0.16 | -0.253 |
| CG33233 | DRSC08239 | 0.449 | -1.59 | -0.757 |
| CG10660 | DRSC09769 | 1.1 | 0.825 | 1.52 |
| CG10660 | DRSC29040 | 0.49 | -0.343 | 0.604 |
| AOX3 | DRSC15955 | -0.727 | -2.19 | -0.917 |
| CG8191 | DRSC20091 | -0.147 | 0.915 | 0.263 |
| CG1631 | DRSC20535 | -0.406 | -1.14 | -1.74 |
| tant | DRSC11401 | 0.814 | -2.95 | 0.673 |
| CG10486 | DRSC09735 | 0.238 | 0.2 | 0.113 |
| Spt5 | DRSC07556 | 0.227 | 1.24 | 0.555 |
| CG30109 | DRSC05675 | -1.56 | -0.731 | 0.568 |
| CG14797 + CG32809 | DRSC18562 | 0.968 | -2.56 | 0.853 |
| sba | DRSC13643 | 0.101 | -0.444 | 1.04 |
| sba | DRSC17050 | 0.967 | -0.925 | -0.479 |
| sba | DRSC25797 | 0.3 | 0.72 | 1.03 |
| CG12688 (retired record) | DRSC17877 | 0.918 | -0.0924 | 0.757 |
| CG12688 (retired record) | DRSC17878 | 0.333 | -1.84 | -0.000151 |
| Cpr78Ca | DRSC11651 | -1.49 | -1.58 | -0.00626 |
| AANATL4 | DRSC06774 | 0.385 | -1.68 | 0.93 |
| mmd | DRSC19673 | -0.732 | -0.843 | 0.462 |
| mmd | DRSC20161 | -3.7 (active) | 0.166 | -3.23 |
| mmd | DRSC23042 | -3.7 | -0.0261 | -1.53 |
| NFAT | DRSC18991 | 0.131 | 0.234 | -0.245 |
| NFAT | DRSC19393 | 0.379 | 0.235 | 0.706 |
| NFAT | DRSC24828 | -4.65 | -0.038 | -0.584 |
| NFAT | DRSC29663 | -0.298 | -0.0578 | 0.427 |
| Bet3 | DRSC10388 | -1.7 | -1.39 | -0.556 |
| ktub | DRSC04551 | -0.0109 | 0.524 | -0.561 |
| Semp1 | DRSC01874 | 0.117 | -1.87 | 0.226 |
| lncRNA:CR42765 | DRSC41429 | -1.44 | -0.416 | 0.459 |
| CG4572 | DRSC15603 | 0.288 | -0.426 | -0.872 |
| natalisin | DRSC14967 | -1.27 | -1.32 | 0.0685 |
| natalisin | DRSC23390 | -0.26 | 0.154 | -0.574 |
| natalisin | DRSC26336 | 0.598 | 0.409 | -0.564 |
